{
  "sequences": {"note": "By UniProt entry, the sequences of proteins in these tests, tags left out. Residues count along the entry.", "UniProt P00642, 2-277": "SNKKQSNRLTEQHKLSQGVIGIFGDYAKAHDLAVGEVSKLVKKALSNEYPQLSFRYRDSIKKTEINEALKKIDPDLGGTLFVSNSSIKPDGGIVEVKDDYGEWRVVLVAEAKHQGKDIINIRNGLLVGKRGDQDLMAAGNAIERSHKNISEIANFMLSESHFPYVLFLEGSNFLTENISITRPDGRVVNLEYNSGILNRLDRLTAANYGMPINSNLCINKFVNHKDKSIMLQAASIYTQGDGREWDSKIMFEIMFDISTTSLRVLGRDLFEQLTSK"},
  "source": "patent US20210108251",
  "assay_in_all_cases": "enzyme reaction in vitro",
  "key": {"[1]": {"biological_target": "EcoRI (RY13 lysate) (Escherichia coli RY13) (UniProt P00642)", "conditions": "5'-amine and 3'-amine, protein in an extract, folded or branched DNA"}, "[2]": {"biological_target": "EcoRI (UniProt P00642)", "conditions": "5'-amine and 3'-amine, off-target enzyme, 2 units, purified recombinant protein, protein details: Thermo Scientific, folded or branched DNA"}, "[3]": {"biological_target": "T1, PstI (UniProt P00640)", "T1 sequence (looked up, limits assumed)": "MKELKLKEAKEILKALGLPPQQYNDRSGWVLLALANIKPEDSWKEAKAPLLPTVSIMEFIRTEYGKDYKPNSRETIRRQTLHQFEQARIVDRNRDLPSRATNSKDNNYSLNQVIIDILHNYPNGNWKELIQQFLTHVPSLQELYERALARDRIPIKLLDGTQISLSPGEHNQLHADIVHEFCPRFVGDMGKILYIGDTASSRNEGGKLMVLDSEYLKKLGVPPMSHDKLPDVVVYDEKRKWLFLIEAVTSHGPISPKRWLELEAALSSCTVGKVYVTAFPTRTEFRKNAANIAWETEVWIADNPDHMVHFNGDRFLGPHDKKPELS", "conditions": "5'-amine and 3'-amine, purified recombinant protein, protein details: New England Biolabs, folded or branched DNA"}, "[4]": {"conditions": "off-target enzyme, 2 units, pair SEQ 5+6"}, "[5]": {"conditions": "off-target enzyme, 2 units, pair SEQ 3+4"}, "[6]": {"conditions": "RY13 lysate, DH5-alpha lysate gives no or few signals"}, "[7]": {"conditions": "off-target enzyme, 2 units, pair SEQ 1+2"}},
  "note": "For some assays here: A negative result means that nothing was seen under these conditions. For some assays here: Protein sequences can lack the tags named with them.",
  "data": [
    {"sequence": "ATTCACTGAATTCAGCGCTTAGGAGTGCATATACGATGCACTGTGAAGATCGCTTATGCATCGTATATGCACTCCTAAGCGCTGAATTCAGTGAAT [REN2B-PB-EcoRI]", "values": [
      {"measurement": "activity on this sequence", "setting": "[1]; pair with SEQ 1, detects 0.4 ug RY13 bacteria", "value": "active"}
    ]},
    {"sequence": "ATTTCCACCGCGGTGGGTATAGGAACTTCGAACGACTCGACTGTGAAGATCGCTTATCGAGTCGTTCGAAGTTCCTATACCCACCGCGGTGGAAAT [REN2-PB-SacII]", "values": [
      {"measurement": "activity on this sequence", "setting": "[2]; pair SEQ 5+6", "value": "not active"},
      {"measurement": "activity on this sequence", "setting": "[3]; [4]", "value": "not active"}
    ]},
    {"sequence": "ATTTCCACTCGAGTGGGTATAGGAACTTCGAACGACTCGACTGTGAAGATCGCTTATCGAGTCGTTCGAAGTTCCTATACCCACTCGAGTGGAAAT [REN2-PB-XhoI]", "values": [
      {"measurement": "activity on this sequence", "setting": "[2]; pair SEQ 3+4", "value": "not active"},
      {"measurement": "activity on this sequence", "setting": "[3]; [5]", "value": "not active"}
    ]},
    {"sequence": "ATTTCCACTGCAGTGGGTATAGGAACTTCGAACGACTCGACTGTGAAGATCGCTTATCGAGTCGTTCGAAGTTCCTATACCCACTGCAGTGGAAAT [REN2-PB-PstI]", "values": [
      {"measurement": "activity on this sequence", "setting": "[2]; pair SEQ 7+8", "value": "not active"},
      {"measurement": "activity on this sequence", "setting": "[3]; pair with SEQ 7, RCA readout", "value": "active"}
    ]},
    {"sequence": "ATTTCCAGAATTCTGGGTATAGGAACTTCGAACGACTCGACTGTGAAGATCGCTTATCGAGTCGTTCGAAGTTCCTATACCCAGAATTCTGGAAAT [REN2-PB-EcoRI]", "values": [
      {"measurement": "activity on this sequence", "setting": "[1]; [6]", "value": "active"},
      {"measurement": "activity on this sequence", "setting": "[3]; [7]", "value": "not active"}
    ]},
    {"sequence": "ATTTGACCCGCGGGTCGTATAGGAACTTCGAACGACTCGCCTCAATGCACATGTTTGGCTCCCGAGTCGTTCGAAGTTCCTATACGACCCGCGGGTCAAAT [REN2-ID33-SacII]", "values": [
      {"measurement": "activity on this sequence", "setting": "[2]; pair SEQ 5+6", "value": "not active"},
      {"measurement": "activity on this sequence", "setting": "[3]; [4]", "value": "not active"}
    ]},
    {"sequence": "ATTTGACCTCGAGGTCGTATAGGAACTTCGAACGACTCGCCTCAATGCACATGTTTGGCTCCCGAGTCGTTCGAAGTTCCTATACGACCTCGAGGTCAAAT [REN2-ID33-XhoI]", "values": [
      {"measurement": "activity on this sequence", "setting": "[2]; pair SEQ 3+4", "value": "not active"},
      {"measurement": "activity on this sequence", "setting": "[3]; [5]", "value": "not active"}
    ]},
    {"sequence": "ATTTGACCTGCAGGTCGTATAGGAACTTCGAACGACTCGCCTCAATGCACATGTTTGGCTCCCGAGTCGTTCGAAGTTCCTATACGACCTGCAGGTCAAAT [REN2-ID33-PstI]", "values": [
      {"measurement": "activity on this sequence", "setting": "[2]; pair SEQ 7+8", "value": "not active"},
      {"measurement": "activity on this sequence", "setting": "[3]; pair with SEQ 8, RCA readout", "value": "active"}
    ]},
    {"sequence": "ATTTGACGAATTCGTCGTATAGGAACTTCGAACGACTCGCCTCAATGCACATGTTTGGCTCCCGAGTCGTTCGAAGTTCCTATACGACGAATTCGTCAAAT [REN2-ID33-EcoRI]", "values": [
      {"measurement": "activity on this sequence", "setting": "[1]; [6]", "value": "active"},
      {"measurement": "activity on this sequence", "setting": "[3]; [7]", "value": "not active"}
    ]}
  ]
}
